Pooled drug test results. Numbers come from NIAID ChemDB, via PubChem.

Shared fields: enzyme or target tests; species: HIV-2; target: Reverse transcriptase; read-out: IC50

ICn is the concentration giving n% inhibition.

structure | changes | read by | strain or isolate | value
C/C=C/CSc1cc(NC(=S)c2ccsc2C)ccc1Cl |  |  |  | >100 µM
C[C@H]1[C@H](O)c2c(c3c(c4c(-c5ccccc5)cc(=O)oc24)OC(C)(C)C=C3)O[C@@H]1C | RT-Y181I | scintillation proximity / radiometric |  | 0.41 µM
CCOCn1c(Sc2ccccc2)c(CC)c(=O)[nH]c1=O |  | nucleotide incorporation |  | >100 µM
CC(=O)c1ccc(C)cc1NC(C(N)=O)c1c(Cl)cccc1Cl |  | nucleotide incorporation | EHO | >1425 µM
Cc1occc1C(=S)Nc1ccc(Cl)c(/C=N/OC(C)(C)C)c1 |  |  |  | >100 µM
C=C(Cc1ccc2c(c1)OCO2)C(=C)Cc1ccc(O)cc1O |  |  |  | 156.9 µg/mL
C=CC1=C(N)C2(OS1(=O)=O)[C@@H](CO[Si](C)(C)C(C)(C)C)O[C@@H](n1cc(C)c(=O)[nH]c1=O)[C@@H]2O[Si](C)(C)C(C)(C)C |  | nucleotide incorporation |  | >500 µM
CCOCn1c(Cc2ccccc2)c(C(C)C)c(=O)[nH]c1=O |  | nucleotide incorporation | EHO | >1656 µM
COc1ccc(OC)c2c(=O)c(O)c[nH]c12 |  | radiometric |  | 8.7 µM
CC(C)=CCN1C(=O)Nc2ccc(Cl)cc2S1(=O)=O |  | RT activity |  | >30 µM
CCOCn1c(Cc2cc(C)cc(C)c2)c(CC)c(=O)[nH]c1=O |  |  | ROD | >500 µM
CCN1c2ncccc2N(C)C(=S)c2sc3cccnc3c21 |  |  |  | >350 µM
CC(C)=CCN1Cc2cccc3[nH]c(=S)n(c23)C[C@@H]1C |  | nucleotide incorporation |  | >140 µM
Cc1c(Sc2ccccc2)n(COCCO)c(=O)[nH]c1=O |  | nucleotide incorporation |  | >10 µM
CNc1ccc(Cl)cc1S(=O)(=O)c1ccccc1[N+](=O)[O-] |  |  | WT | >100 µM
COC(=O)C(Cc1ccccc1)NC(=O)[C@@H](NC(=O)[C@@H](C[C@H](O)[C@H](CC1CCCCC1)NC(=O)[C@@H](NC(=O)[C@H](Cc1ccccc1)CS(=O)(=O)C(C)(C)C)C(C)C)C(C)C)C(C)C |  | nucleotide incorporation | ROD | 462 µM
CCc1cc(CCc2nc3c(Cl)ccc(Cl)c3o2)c(=S)[nH]c1C |  |  |  | >300 µM
O=C1c2ccccc2C2(c3ccccc3)SCCN12 |  | ELISA |  | >200 µM
CC(C)=CCN1Cc2cccc3[nH]c(=O)n(c23)CC1C |  | nucleotide incorporation |  | >300 µM

The last 2 rows once more:

structure	changes	read by	strain or isolate	value
O=C1c2ccccc2C2(c3ccccc3)SCCN12		ELISA		>200 µM
CC(C)=CCN1Cc2cccc3[nH]c(=O)n(c23)CC1C		nucleotide incorporation		>300 µM

An empty or dashed field is not shown. Conditions beyond the fields shown may differ between rows.